Here are results for one molecule from PMC11370232, “Repurposing of a library for high-content screening of inhibitors against Echinococcus granulosus” (Parasites & Vectors, 2024).

The data set relates to E. granulosus PSCs.

Like-named read-outs stand apart in the source and are kept apart here.

Regarding `COC(=O)C(N)Cc1ccc(N(CCCl)CCCl)cc1` (stereo not shown), the mortality runs as follows: (read-out: Anti-echinococcus activity % of death, 0.5uM, compound at 0.5uM) 0%; (read-out: Anti-echinococcus activity % of death, 2uM, compound at 2uM) 0%; (read-out: Anti-echinococcus activity % of death, 10uM, compound at 10uM) 100%; (read-out: Anti-echinococcus activity % of death, 50uM, compound at 50uM) 100%.
